# Experimental data reported in patent US20030229053A1, “Compounds and methods for the treatment or prevention of flavivirus infections” (Shire BioChem Inc., priority 2001, published 2003).
# Sequences of proteins named here, by UniProt entry; tags and fusion partners are left off. Residues count along the entry.
# UniProt P26663, 2420-3010 limits assumed: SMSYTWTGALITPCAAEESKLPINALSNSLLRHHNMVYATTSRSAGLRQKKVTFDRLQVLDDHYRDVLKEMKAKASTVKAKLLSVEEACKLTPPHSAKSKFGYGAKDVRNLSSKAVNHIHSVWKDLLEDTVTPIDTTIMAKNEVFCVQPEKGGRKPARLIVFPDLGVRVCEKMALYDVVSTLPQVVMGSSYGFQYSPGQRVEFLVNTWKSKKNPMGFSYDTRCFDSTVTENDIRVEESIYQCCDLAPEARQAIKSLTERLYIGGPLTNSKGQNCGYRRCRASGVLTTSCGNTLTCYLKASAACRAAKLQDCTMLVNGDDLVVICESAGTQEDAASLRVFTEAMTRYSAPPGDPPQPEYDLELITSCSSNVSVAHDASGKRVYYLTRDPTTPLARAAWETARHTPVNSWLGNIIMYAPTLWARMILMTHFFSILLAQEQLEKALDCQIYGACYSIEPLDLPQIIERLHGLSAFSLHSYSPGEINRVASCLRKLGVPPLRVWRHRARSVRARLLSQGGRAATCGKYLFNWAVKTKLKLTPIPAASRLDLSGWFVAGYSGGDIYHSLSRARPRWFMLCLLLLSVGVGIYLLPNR
# Target: HCV NS5B RNA-dependent RNA polymerase (Hepatitis C virus genotype 1b, UniProt P26663)
# Assay: In vitro RNA-dependent RNA polymerase assay (Assay 1), polyA/oligo dT, TCA precipitation
# Type: biochemical
# Settings: read-out: RNA pol Assay 1 IC50 (μm); polyA/oligo dT template/primer, 200 ng NS5B, 2 h at 22° C.
# Method: Purification of Recombinant NS5B Using Fast Protein Liquid Chromatography (FPLC):
# Soluble NS5B protein in the S3 fraction was diluted to lower the NaCl concentration to 300 mM, then it incubated batchwise with DEAE sepharose beads (Amersham-Pharmacia) for 2 hrs at 4° C., as described by Behrens et al. (1996). Unbound material was cleared by centrifugation for 15 min at 4° C., at 25,000 rpm using a SW41 rotor (Beckman). The supernatant was further diluted to lower the NaCl concentration to 200 mM and subsequently loaded, with a flow rate of 1 ml/min, on a 5 ml HiTrap® heparin column (Amersham-Pharmacia) connected to an FPLC® system (Amersham-Pharmacia). Bound proteins were eluted in 1 ml fractions, using a continuous NaCl gradient of 0.2 to 1 M, over a 25 ml volume. NS5B-containing fractions were identified by sodium dodecyl sulfate polyacrylamide gel electrophoresis (SDS-PAGE), followed by western blotting using the anti-NS5B antiserum at a dilution of 1:2000. […] Eluted fractions were analyzed by SDS-PAGE and western blotting. […]
# RdRp assays were conducted using the homopolymeric template/primer polyA/oligo dT. […] Incorporated radioactivity was quantified using a liquid scintillation counter (1450-Microbeta, Wallac). […]
row,SMILES,IC50
1,Cc1cc(Cl)ccc1C(=O)N(Cc1ccc(-c2cccc(C(F)(F)F)c2)o1)[C@@H](Cc1ccccc1)C(=O)O,< 5 µM
2,O=C(O)C1CCN(c2ncc(CN(C(=O)c3ccc(Cl)cc3Cl)[C@@H](Cc3ccccc3)C(=O)O)s2)CC1,5 to 20 µM

# The match of structure and compound is tentative.
